From publication PMC3849439, “Peptides Corresponding to the Predicted Heptad Repeat 2 Domain of the Feline Coronavirus Spike Protein Are Potent Inhibitors of Viral Infection” (PLoS ONE, 2013)
The source's definition of the ratio is not given here.

What follows are compounds tested on Feline coronavirus type II NTU156 strain. Details: relates CC50 (fcwf-4, MTT) to IC50 (plaque reduction).

| Compound | Selectivity index (SI) |
| --- | --- |
| CC[C@H](C)[C@H](NC(=O)[C@H](CC(N)=O)NC(=O)[C@H](CC(=O)O)NC(=O)[C@@H](NC(=O)[C@H](CC(C)C)NC(=O)[C@@H](NC(=O)[C@H](C)NC(=O)[C@H](CC(C)C)NC(=O)[C@H](CCC(=O)O)NC(=O)[C@@H](NC(=O)[C@@H](NC(=O)[C@@H](NC(=O)[C@H](CC(N)=O)NC(=O)[C@H](Cc1c[nH]cn1)NC(=O)[C@H](CC(C)C)NC(=O)[C@H](CCCCN)NC(=O)[C@H](CCC(=O)O)NC(=O)[C@H](CO)NC(=O)[C@H](CCCNC(=N)N)NC(=O)[C@H](Cc1ccccc1)NC(=O)[C@H](CCC(=O)O)NC(=O)[C@H](CC(C)C)NC(=O)[C@H](CC(=O)O)NC(=O)[C@H](CC(=O)O)NC(=O)[C@@H](NC(=O)[C@H](CCC(=O)O)NC(=O)CNC(=O)[C@@H](NC(=O)[C@H](CC(C)C)NC(=O)[C@H](CC(N)=O)NC(=O)[C@H](CC(C)C)NC(=O)[C@H](Cc1ccc(O)cc1)NC(=O)[C@@H](NC(=O)[C@H](C)NC(=O)[C@H](CC(N)=O)NC(=O)[C@@H](N)Cc1ccccc1)[C@@H](C)O)[C@@H](C)O)[C@@H](C)CC)[C@@H](C)O)[C@@H](C)O)C(C)C)[C@@H](C)CC)[C@@H](C)CC)C(=O)O [FP3] | ≧14.07 |
| CC[C@H](C)[C@H](NC(=O)[C@H](C)NC(=O)[C@H](CC(C)C)NC(=O)[C@H](CCC(=O)O)NC(=O)[C@@H](NC(=O)[C@@H](NC(=O)[C@@H](NC(=O)[C@H](CC(N)=O)NC(=O)[C@H](Cc1c[nH]cn1)NC(=O)[C@H](CC(C)C)NC(=O)[C@H](CCCCN)NC(=O)[C@H](CCC(=O)O)NC(=O)[C@H](CO)NC(=O)[C@H](CCCNC(=N)N)NC(=O)[C@H](Cc1ccccc1)NC(=O)[C@H](CCC(=O)O)NC(=O)[C@H](CC(C)C)NC(=O)[C@H](CC(=O)O)NC(=O)[C@H](CC(=O)O)NC(=O)[C@@H](NC(=O)[C@H](CCC(=O)O)NC(=O)CNC(=O)[C@@H](NC(=O)[C@H](CC(C)C)NC(=O)[C@H](CC(N)=O)NC(=O)[C@H](CC(C)C)NC(=O)[C@H](Cc1ccc(O)cc1)NC(=O)[C@@H](NC(=O)[C@H](C)NC(=O)[C@H](CC(N)=O)NC(=O)[C@@H](N)Cc1ccccc1)[C@@H](C)O)[C@@H](C)O)[C@@H](C)CC)[C@@H](C)O)[C@@H](C)O)C(C)C)C(=O)N[C@@H](CC(C)C)C(=O)N[C@H](C(=O)N[C@@H](CC(=O)O)C(=O)N[C@@H](CC(N)=O)C(=O)N[C@H](C(=O)N[C@@H](CC(N)=O)C(=O)N[C@@H](CC(N)=O)C(=O)N[C@H](C(=O)N[C@@H](CC(C)C)C(=O)N[C@H](C(=O)N[C@@H](CC(N)=O)C(=O)N[C@@H](CC(C)C)C(=O)O)C(C)C)[C@@H](C)O)[C@@H](C)CC)[C@@H](C)CC [FP4] | ≧111.11 |
| CC[C@H](C)[C@H](NC(=O)[C@H](C)NC(=O)[C@H](CC(C)C)NC(=O)[C@H](CCC(=O)O)NC(=O)[C@@H](NC(=O)[C@@H](NC(=O)[C@@H](NC(=O)[C@H](CC(N)=O)NC(=O)[C@H](Cc1c[nH]cn1)NC(=O)[C@H](CC(C)C)NC(=O)[C@H](CCCCN)NC(=O)[C@H](CCC(=O)O)NC(=O)[C@H](CO)NC(=O)[C@H](CCCNC(=N)N)NC(=O)[C@H](Cc1ccccc1)NC(=O)[C@H](CCC(=O)O)NC(=O)[C@H](CC(C)C)NC(=O)[C@H](CC(=O)O)NC(=O)[C@H](CC(=O)O)NC(=O)[C@@H](NC(=O)[C@H](CCC(=O)O)NC(=O)CNC(=O)[C@@H](NC(=O)[C@H](CC(C)C)NC(=O)[C@H](CC(N)=O)NC(=O)[C@H](CC(C)C)NC(=O)[C@H](Cc1ccc(O)cc1)NC(=O)[C@@H](NC(=O)[C@H](C)NC(=O)[C@H](CC(N)=O)NC(=O)[C@@H](N)Cc1ccccc1)[C@@H](C)O)[C@@H](C)O)[C@@H](C)CC)[C@@H](C)O)[C@@H](C)O)C(C)C)C(=O)N[C@@H](CC(C)C)C(=O)N[C@H](C(=O)N[C@@H](CC(=O)O)C(=O)N[C@@H](CC(N)=O)C(=O)N[C@H](C(=O)N[C@@H](CC(N)=O)C(=O)N[C@@H](CC(N)=O)C(=O)N[C@H](C(=O)N[C@@H](CC(C)C)C(=O)N[C@H](C(=O)N[C@@H](CC(N)=O)C(=O)N[C@@H](CC(C)C)C(=O)N[C@@H](CCC(=O)O)C(=O)N[C@@H](Cc1c[nH]c2ccccc12)C(=O)N[C@@H](CC(C)C)C(=O)N[C@@H](CC(N)=O)C(=O)N[C@@H](CCCNC(=N)N)C(=O)N[C@H](C(=O)N[C@@H](CCC(=O)O)C(=O)O)[C@@H](C)CC)C(C)C)[C@@H](C)O)[C@@H](C)CC)[C@@H](C)CC [FP5] | ≧150.37 |
